Measured values from several laboratories, pooled; numbers as filed in NIAID ChemDB.

All rows: growth or infection tests; organism: HIV-2

ECn: concentration that inhibits the pathogen or its effect by n%. Lines come from different laboratories, so protocols vary.

Cc1ccccc1CN1CCC(N=C2C=C(Cc3ccc(Cl)cc3Cl)NS(=O)(=O)N2)CC1 ; endpoint: EC50 ; cells: MT-4 ; read by: MTT ; strain: ROD ; result: >107 µM
CCc1c(SCc2cccc3ccccc23)cc(C)oc1=O ; endpoint: EC50 ; cells: CEM ; read by: MTT ; strain: ROD ; result: >10 µM
O=C(CSc1nncnc1-c1ccccc1Cl)Nc1cccnc1Cl ; endpoint: EC50 ; cells: MT-4 ; read by: MTT ; strain: ROD ; result: >167 µM
Fc1cccc(F)c1C1SCc2nc3ccccc3n21 ; endpoint: EC50 ; cells: MT-4 ; read by: cytopathic effect / MTT ; strain: ROD ; result: >48.6 µM
Cc1ccnc2c1NC(=O)c1cccnc1N2C1CC1 ; endpoint: EC50 ; cells: CEM ; read by: MTT ; strain: ROD ; result: >10 µM
Fc1ccc2nc3n(c2c1)C(c1c(F)cccc1Cl)SC3 ; endpoint: EC50 ; cells: MT-4 ; read by: cytopathic effect / MTT ; strain: ROD ; result: >28.2 µM
N#Cc1cccc(CN2CCC(N=C3C=C(Cc4cccc5ccccc45)NS(=O)(=O)N3)CC2)c1 ; endpoint: EC50 ; cells: MT-4 ; read by: MTT ; strain: ROD ; result: >113 µM
Cc1cc(C#N)cc(C)c1Oc1ncc(N)c(Nc2ccc(C#N)cc2)n1 ; endpoint: EC50 ; cells: MT-4 ; read by: MTT ; strain: ROD ; result: >35.1 µM
Nc1ccn([C@H]2CC[C@@H](CO)O2)c(=O)n1 ; endpoint: EC50 ; cells: CEM ; read by: virus yield ; strain: LAV-2 ; result: <0.001 µM
Cc1cc(NCc2ccccc2)c(C(=O)C(Cl)Cl)c(=O)o1 ; endpoint: EC50 ; cells: CEM ; read by: MTT ; strain: ROD ; result: >2 µM
COc1ccc(CN2CCC(N=C3C=C(Cc4cccc5ccccc45)NS(=O)(=O)N3)CC2)cc1 ; endpoint: EC50 ; cells: MT-4 ; read by: MTT ; strain: ROD ; result: >119 µM
Cc1cccc2c1nc1n2C(c2c(F)cccc2Cl)SC1 ; endpoint: EC50 ; cells: MT-4 ; read by: cytopathic effect / MTT ; strain: ROD ; result: >392 µM
O=S1(=O)NC(Cc2ccc(Cl)cc2Cl)=CC(=NC2CCN(Cc3ccc(F)cc3)CC2)N1 ; endpoint: EC50 ; cells: MT-4 ; read by: MTT ; strain: ROD ; result: >103 µM
Cc1ccc(NC(=O)CSc2nncnc2-c2ccccc2Cl)c([N+](=O)[O-])c1 ; endpoint: EC50 ; cells: MT-4 ; read by: MTT ; strain: ROD ; result: >158 µM
Cc1cn([C@H]2C=C[C@@H](CO)O2)c(=O)[nH]c1=O ; endpoint: EC50 ; cells: CEM ; read by: syncytia ; strain: ROD ; result: 0.3 µM
Cc1cn([C@H]2C=C[C@@H](CO)O2)c(=O)[nH]c1=O ; endpoint: EC50 ; cells: MAGIC-5A ; read by: β-galactosidase / absorbance ; strain: ROD9 ; result: 0.8 µM
Nc1ccn([C@H]2CC[C@@H](CO)O2)c(=O)n1 ; endpoint: EC50 ; cells: CEM + CEM TK- ; read by: syncytia ; strain: ROD ; result: 0.03 µM
Cc1cn([C@H]2C[C@H](N=[N+]=[N-])[C@@H](CO)O2)c(=O)[nH]c1=O ; endpoint: EC50 ; conditions: clinical isolate ; cells: PBMC ; read by: cytopathic effect / XTT ; strain: CBL-20 ; result: 0.002 µM
N#Cc1ccc(Nc2nc(Oc3c(Br)cc(Br)cc3Br)ncc2[N+](=O)[O-])cc1 ; endpoint: EC50 ; cells: MT-4 ; read by: MTT ; strain: ROD ; result: >20.4 µM
CCc1cc(NCc2nc3c(Cl)ccc(Cl)c3o2)c(=O)[nH]c1C ; changes: RT-E219D ; endpoint: EC50 ; cells: MT-4 ; read by: cytopathic effect / MTT ; strain: EHO ; result: 27 µM
N#Cc1ccc(Nc2nc(Oc3c(Cl)cccc3Cl)ncc2N)cc1 ; endpoint: EC50 ; cells: MT-4 ; read by: MTT ; strain: ROD ; result: >33.04 µM
C(CCCN1CCCNCCNCCCNCC1)CCN1CCCNCCNCCCNCC1 ; endpoint: EC50 ; cells: MT-4 ; read by: cytopathic effect / MTT ; strain: ROD ; result: 0.616 µM
Nc1ccn([C@H]2CC[C@@H](CO)O2)c(=O)n1 ; endpoint: EC50 ; cells: MT-4 ; read by: MTT ; strain: ROD ; result: 1.3 µM
CC(C)c1cc(=O)oc2c3c(c4c(c12)OC(C)(C)C=C4)O[C@@H](C)[C@H](C)C3=O ; endpoint: EC50 ; cells: CEM + CEM-SS ; strain: ROD ; result: 0.17 µM
COC(=O)[C@H](C)NP(=O)(OC[C@@H]1O[C@H](n2ccc(N)nc2=O)CS1)Oc1ccccc1 ; endpoint: EC50 ; cells: CEM ; read by: syncytia ; strain: ROD ; result: 3 µM
CC(C)Nc1cccnc1N1CCN(C(=O)c2cc3cc(NS(C)(=O)=O)ccc3[nH]2)CC1 ; endpoint: EC50 ; cells: MT-4 ; read by: MTT ; strain: ROD ; result: >127 µM
CC(C)Nc1cccnc1N1CCN(C(=O)c2cc3cc(NS(C)(=O)=O)ccc3[nH]2)CC1 ; changes: RT-E219D ; endpoint: EC50 ; cells: MT-4 ; read by: cytopathic effect / MTT ; strain: EHO ; result: >47.3 µM
FC(F)(F)c1ccc2c(c1)nc1n2C(c2c(Cl)cccc2Cl)SC1 ; endpoint: EC50 ; cells: MT-4 ; read by: cytopathic effect / MTT ; strain: ROD ; result: >25.9 µM
Cc1cc(NCCc2c[nH]c3ccccc23)c(C(=O)C(Cl)Cl)c(=O)o1 ; endpoint: EC50 ; cells: CEM ; read by: MTT ; strain: ROD ; result: ≥2 µM
Cc1cc(Br)cc(C)c1Oc1ncc(N)c(Nc2ccc(C#N)cc2)n1 ; endpoint: EC50 ; cells: MT-4 ; read by: MTT ; strain: ROD ; result: >31.63 µM
C#C[C@]1(CO)O[C@@H](n2cnc3c(N)nc(F)nc32)CC1O ; changes: K65R Y115F Q151M M184V ; endpoint: EC50 ; cells: MAGIC-5A ; read by: β-galactosidase / absorbance ; strain: ROD9 ; result: 0.0053 µM
C1CNCCNCCCN(CCCN2CCCNCCNCCCNCC2)CCNC1 ; endpoint: EC50 ; cells: CEM ; read by: antigen ; strain: ROD ; result: 0.37 µM
Fc1cccc(Cl)c1C1SCc2nc3cc(C(F)(F)F)ccc3n21 ; endpoint: EC50 ; cells: MT-4 ; read by: cytopathic effect / MTT ; strain: ROD ; result: >335 µM
Cc1cc(C=O)cc(C)c1Oc1ncc(N)c(Nc2ccc(C#N)cc2)n1 ; endpoint: EC50 ; cells: MT-4 ; read by: MTT ; strain: ROD ; result: ≥34.5 µM
N#Cc1ccccc1CN1CCC(N=C2C=C(Cc3ccc(Cl)cc3Cl)NS(=O)(=O)N2)CC1 ; endpoint: EC50 ; cells: MT-4 ; read by: MTT ; strain: ROD ; result: >121 µM
C1CNCCNCCCN[C@H]([C@@H]2CNCCCNCCNCCCN2)CNC1 ; endpoint: EC90 ; cells: MT-4 ; read by: cytopathic effect / MTT ; strain: EHO ; result: 0.87 µM
N#Cc1ccc(Nc2nc(Oc3c(Cl)cc(Cl)cc3Cl)ncc2NC(=O)C(F)(F)F)cc1 ; endpoint: EC50 ; cells: MT-4 ; read by: MTT ; strain: ROD ; result: >5.57 µM
CC(C)c1cc(=O)oc2c3c(c4c(c12)OC(C)(C)C=C4)O[C@H](C)[C@@H](C)C3=O ; endpoint: EC50 ; cells: CEM + CEM-SS ; strain: ROD ; result: 0.27 µM
CC(=O)c1ccc(C)cc1NC(C(N)=O)c1c(Cl)cccc1Cl ; changes: RT-S102L ; endpoint: EC50 ; cells: MT-4 ; read by: cytopathic effect / MTT ; strain: EHO ; result: 13.4 µM
N#Cc1ccc(Nc2nc(Oc3c(Cl)cc(Cl)cc3Cl)ncc2N)cc1 ; endpoint: EC50 ; cells: MT-4 ; read by: MTT ; strain: ROD ; result: >26.48 µM